Measured values: publication PMC12654924 (PLOS Pathogens, 2025)

How the values were obtained:
[1] = target: tHA (Asiatic toad influenza-like virus HA) (Wuhan asiatic toad influenza virus, UniProt A0A2P1GNQ1); conditions: read-out: affinity; biotinylated glycan immobilised; PBST pH 7.4, 25 °C; kinetic 1:1 Langmuir fit; labelled compound
[2] = target: InH5 HA (A/Indonesia/5/2005) (Influenza A virus (A/Indonesia/5/2005(H5N1)), UniProt C5MRF2); conditions: read-out: affinity; biotinylated glycan immobilised; PBST pH 7.4, 25 °C; steady state affinity model; labelled compound

With “NeuAcα2–3Galβ1–4GlcNAcβ1–3Galβ1–4GlcNAcβ1-SpNH-LC-LC-Biotin [α2–3 glycans (3′SLNLN, biotinylated)]” as the substance, how does the Kd [1] read?
Its Kd is 0.0353 µM.

What about the Kd [2] of the same substance?
Its Kd is 68.3 µM.
